The entries are a selection whose mix differs from that of the whole data set. The source made the active and inactive calls. Cut-off read from the data, not from the text of the source: active = inhibition above about 40%; inactive = the rest.
Assay: growth inhibitors of wild type E. coli, primary screen, strain BW25113 wild type, absorbance readout (AID 552);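 note: bacteria exposed to compound for 20 hours at 37 °C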
Conditions: OD600, at 10 µM, active compounds read high
In short: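 assay system = bacterial strain in a whole-cell growth screen | quantity = inoculum from a 1:1000 dilution of a 1.5 h subculture | buffer or medium = LB broth with 50 µg/mL kanamycin | compound dosing = one dose, 10 µM final | schedule = compound exposure of 20 h at 37 °C | technique = absorbance at 615 nm as a measure of bacterial growth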

Q: With `O=C(OC1CN2CCC1CC2)C1c2ccccc2Oc2ccccc21` (configuration not stated) as the molecule, how does the inhibition read?
A: inactive: -10.2%

Q: Which inhibition does the source give for `Fc1ccccc1NC1CCN(Cc2ccccc2)CC1` here?
A: inactive: 3.06%
